Values quoted from earlier work, collected in publication PMC7504092, “Synthesis and Antiplasmodial Evaluation of 4-Carboxamido- and 4-Alkoxy-2-Trichloromethyl Quinazolines” (Molecules, 2020).

Tested on: K1 P. falciparum strain
Settings: CC50/EC50, previously described compounds; ref 9 (A), 10 (B), 11 (C); cited from earlier work

## Fc1ccc(-c2nc(C(Cl)(Cl)Cl)nc3ccccc23)cc1 [A, 4-(4′-fluorophenyl)-2-trichloromethylquinazoline]
  Selectivity Index (SI): >50

## O=[N+]([O-])c1ccc(COc2nc(C(Cl)(Cl)Cl)nc3ccccc23)cc1 [C]
  Selectivity Index (SI): 11
